Source: US20250241944A1 (CALIFORNIA INSTITUTE OF TECHNOLOGY, priority 2023, published 2025)

Tested on: WT Pseudomonas aeruginosa UCBPP-PA14
Experiment: Antibiotic treatment assay with viable plate counts (percent survival / log killing)

Compound | mechanism of antibiotic recalcitrance under hypoxic conditions
colistin | O2-independent genetic resistance
NC[C@H]1O[C@H](O[C@H]2[C@H](O)[C@@H](O[C@H]3O[C@H](CO)[C@@H](O)[C@H](N)[C@H]3O)[C@H](N)C[C@@H]2N)[C@H](N)C[C@@H]1O [tobramycin] | hypoxia-induced tolerance
O=C(O)c1cn(C2CC2)c2cc(N3CCNCC3)c(F)cc2c1=O [ciprofloxacin] | hypoxia-induced tolerance
CC(C)(O/N=C(\C(=O)N[C@@H]1C(=O)N2C(C(=O)[O-])=C(C[n+]3ccccc3)CS[C@H]12)c1csc(N)n1)C(=O)O [ceftazidime] | O2-independent genetic resistance
